± gives the standard deviation of the averaged measurements.

The assay relates to HepaRG. The assay can be described thus: LDH release cytotoxicity, % of total lysis control; higher = more cytotoxic. Particulars: 48 h. The gist of the method: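 Single-lot HepaRG cells in collagen I-coated 96-well plates were treated for 48 h in serum-free induction medium containing 0.5% DMSO with test chemicals in eight-point half-log series up to 100 µM. For total lysis, wells received 0.1% Triton X. LDH in 50 µL spent medium was assayed by resorufin fluorescence with CytoTox-ONE. Percent cytotoxicity was normalized to the on-plate vehicle and total lysis controls, with duplicates averaged.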
For orientation: Release of lactate dehydrogenase indicates damage to the cell membrane.

As to `CCCCOP(=O)(OCCCC)OCCCC` [Tributyl phosphate], the LDH release cytotoxicity is, setting by setting: (3.16228 µM) 0.066 ± 0.15%; (10 µM) 0.576 ± 0.17%; (31.6228 µM) 3.52 ± 0.51%.
As for `O=C1C2CC=CCC2C(=O)N1SC(Cl)(Cl)C(Cl)Cl` (stereo unspecified) [Captafol], the LDH release cytotoxicity (0.03162 µM) is -0.403 ± 0.24%; the LDH release cytotoxicity (0.1 µM) was -1.07 ± 0.25%; the LDH release cytotoxicity (0.3162278 µM) was -0.768 ± 0.056%; the LDH release cytotoxicity (1 µM) is -0.614 ± 0.15%; the LDH release cytotoxicity (3.16228 µM) was -1.14 ± 0.044%; the LDH release cytotoxicity (10 µM) turned out to be 0.17 ± 0.35%. Besides, the LDH release cytotoxicity (31.6228 µM) came to 4.69 ± 0.55% and the LDH release cytotoxicity (100 µM) was determined as 31.5 ± 2.7%.

Values taken from the supplement of paper PMC7840683.
